Data: US20230375531A1

Assays:
[1] = target: biotinylated monoFc-ACE2 receptor (human ACE2 residues 19-615 with N-terminal monoFc) (human) (UniProt Q9BYF1)
[2] = target: biotinylated monoFc-ACE2 receptor (human ACE2 residues 19-615 with N-terminal monoFc) (human) (UniProt Q9BYF1); test: BLI association phase

SARS-CoV-2 Spike receptor binding domain fused to cellulose binding domain (RBD-CBD) (from UniProt P0DTC2 332-532; Q06851 276-434)
Kd [1]: 0.0127 µM
percent of RBD/ACE2 receptor complex formed within 5 min [2]: > 80%
